A mixed list of measured activities; the numbers were collected in NIAID ChemDB.

All rows: tests in culture; organism: Mycobacterium tuberculosis

MIC bound: limit read from a one-dose screen. Conditions beyond the fields shown may differ between rows. Blank or dashed fields: not listed here. ECn: concentration that inhibits the pathogen or its effect by n%. Percent inhibition refers to the dose given; in toxicity tests it is the harm to the cells.

smiles	endpoint	changes	strain	conditions	cells	read by	tested at	result
CCn1cc(C(=O)O)c(=O)c2cc(F)c(N3CCN(CC(=O)c4cccs4)CC3)cc21	MIC	-	H37Rv	-	-	-	-	>6.25 µg/mL
COc1ccc(-c2ccc(OCC(=O)OC(C)(C)C)cc2CN2CCN(c3cccc(C)n3)CC2)cc1	MIC	-	H37Rv (ATCC 27294)	-	-	broth dilution	-	16 µg/mL
CC12CCC(O)CC1CCC1C2CCC2(C)C(c3ccc(=O)oc3)CC3OC312	MIC	-	H37Rv	-	-	BACTEC	-	≥12.8 µg/mL
Cn1c(NNc2nc(Nc3cccc(Cl)c3)nc(Nc3cccc(Cl)c3)n2)nc(-c2ccc(Cl)cc2)c(C#N)c1=O	MIC	-	H37Rv	-	-	-	-	>12.5 µg/mL
Cc1ccc2c(Cl)c(Cc3ccccc3)c(N3CCOCC3)nc2n1	inhibition	-	H37Rv	-	-	BACTEC	6.25 µg/mL	20%
O=C(O)COc1ccc(-c2ccc(Cl)cc2)c(CN2CCN(c3ccncc3)CC2)c1	MIC	-	H37Rv (ATCC 27294)	-	-	broth dilution	-	32 µg/mL
CC(=O)OC1COC([n+]2cccc(C(N)=O)c2)C(OC(C)=O)C1OC(C)=O.[Br-]	MIC bound	-	H37Rv	-	-	BACTEC	-	>12.5 µg/mL
CN1CCN(c2ccc3c(=O)n4c(nc3c2)C(=O)c2cc(F)ccc2-4)CC1	MIC	-	MDR 10038	-	-	-	-	1 µg/mL
COc1ccc(-c2noc(C3=CC4(CCN(CC5CCCO5)CC4)c4ccccc43)n2)cc1	MIC	Drug-resistant	ATCC 2794	-	-	resazurin	-	0.39 µM
CCCc1nnc(NS(=O)(=O)c2ccc(C)cc2)o1	MIC bound	-	H37Rv	-	-	BACTEC	-	>12.5 µg/mL
Cc1ccc(Nc2nc(NNc3nc(-c4ccc(Cl)cc4)c(C#N)c(=O)n3C)nc(Nc3ccc(C)cc3C)n2)c(C)c1	EC50	-	H37Rv	-	-	-	-	<12.5 µg/mL
Cc1ccc2nc3c(Cl)c(C)c(=O)cc-3sc2c1	inhibition	-	H37Rv	-	-	BACTEC	12.5 µg/mL	82%
COc1ccc(/C=N/C(=O)NCCCN2c3ccccc3Sc3ccccc32)cc1	inhibition	-	H37Rv	-	-	agar	50 µg/mL	40%
CC[C@@H](CO)NCCN[C@@H](CC)CO	MIC	Rifampicin-resistant	19000	-	-	resazurin	-	1.2 µM
COc1cc2nc3n(c(=O)c2cc1OC)-c1ccccc1C3=O	MIC	-	MDR 10038	-	-	-	-	10 µg/mL
CC1=C(C(=O)Nc2cccc([N+](=O)[O-])c2)C(c2ccccc2Cl)C(C(=O)Nc2cccc([N+](=O)[O-])c2)=C(C)N1	MIC	-	H37Rv	-	-	-	-	>6.25 µg/mL
Nc1ccc2nc3n(c(=O)c2c1)-c1ccc(F)cc1C3=O	MIC	-	H37Rv	-	-	-	-	5 µg/mL
Nc1ccc(C(=O)O)c(O)c1	inhibition	-	7800	-	-	-	3.12 µM	100%
CN[C@@H]1[C@H](O[C@H]2[C@H](O[C@H]3[C@H](O)[C@@H](O)[C@H](N=C(N)N)[C@@H](O)[C@@H]3N=C(N)N)O[C@@H](C)[C@]2(O)C=O)O[C@@H](CO)[C@H](O)[C@H]1O	MIC	Spiroindene-resistant	TB365	-	-	turbidity	-	0.5 µM
CN1N=CSC12C(=O)N(c1ccccc1)C(=O)N2c1ccccc1	MIC	-	H37Rv	-	-	BACTEC	-	≥12.8 µg/mL
O=C1CSC(c2ccccc2Cl)N1C(=O)NCCCN1c2ccccc2Sc2ccccc21	inhibition	-	H37Rv	-	-	agar	25 µg/mL	30%
CCOC(=O)COc1ccc(-c2ccc(C#N)cc2)c(CN2CCN(c3ccccn3)CC2)c1	MIC	-	H37Rv (ATCC 27294)	-	-	broth dilution	-	4 µg/mL
CO/N=C(/CN1CCN(c2cc3c(cc2F)c(=O)c(C(=O)O)cn3C2CC2)CC1)c1cccs1	inhibition	-	H37Rv	-	-	-	6.25 µg/mL	99%
NC(=O)c1nccnc1N	MIC bound	-	H37Rv	-	-	BACTEC	-	>12.5 µg/mL
NNC(=O)c1ccncc1	MIC	Multidrug-resistant	FJ05189	-	-	resazurin	-	<0.5 µg/mL
CC1=C(C(=O)Nc2ccccc2F)C(c2ccccc2)C(C(=O)Nc2ccccc2[N+](=O)[O-])=C(C)N1	MIC	-	H37Rv	-	-	-	-	>6.25 µg/mL
CO[C@H]1/C=C/O[C@@]2(C)Oc3c(C)c(O)c4c(=O)c(c5oc6cc(N7CCN(CC(C)C)CC7)cc(=O)c6nc5c4c3=C2O)NC(=O)/C(C)=C\C=C\[C@H](C)[C@H](O)[C@@H](C)[C@@H](O)[C@@H](C)[C@H](OC(C)=O)[C@@H]1C	MIC	-	Kurata	-	-	-	-	0.016 µg/mL
O=C(CCl)OCCN1Cc2nc3sc4c(c3c(=O)n2CC1=O)CCCC4	MIC bound	-	H37Rv	-	-	BACTEC	-	>12.5 µg/mL
COc1cccc(Nc2nc(NNc3nc(-c4ccc(Cl)cc4)c(C#N)c(=O)n3C)nc(Nc3cccc(OC)c3)n2)c1	inhibition	-	H37Rv	-	-	-	12.5 µg/mL	21%
CC(C)[Si]1(C(C)C)OC[C@H]2O[C@@H](c3cn(C)c(=O)n(C)c3=O)[C@H](OC(=S)n3ccnc3)[C@@H]2O[Si](C(C)C)(C(C)C)O1	MIC bound	-	H37Rv	-	-	BACTEC	-	>12.5 µg/mL
CC1=C(C(=O)Nc2ccc(F)c(Cl)c2)C(c2ccc(O)cc2)C(C(=O)Nc2ccc(F)c(Cl)c2)=C(C)N1	MIC	-	H37Rv	-	-	-	-	>6.25 µg/mL
CO[C@H]1/C=C/O[C@@]2(C)Oc3c(C)c(O)c4c(O)c(c5c(c4c3C2=O)NC2(CCN(CC(C)C)CC2)N=5)=NC(=O)/C(C)=C\C=C\[C@H](C)[C@H](O)[C@@H](C)[C@@H](O)[C@@H](C)[C@H](OC(C)=O)[C@@H]1C	MIC	-	Strain 67 (L533P)	-	-	-	-	0.25 µg/mL
COC(=O)c1ccc(NCC2=C(Br)C(=O)C=CC2=O)cc1Cl	inhibition	-	H37Rv	-	-	BACTEC	12.5 µg/mL	18%
Cc1ccc(-c2noc(C3=CC4(CCN(CC5CCCO5)CC4)c4ccccc43)n2)cn1	MIC	Spiroindene-resistant	TB376	-	-	turbidity	-	15.5 µM
O=C(C[n+]1ccccc1)N/N=C/c1ccc([N+](=O)[O-])s1.[Cl-]	inhibition	-	H37Rv	-	-	BACTEC	12.5 µg/mL	73%
NC(=O)c1cnccn1	MIC	-	Isolate H3628 (INH RIF-resistant)	-	-	-	-	>900 µg/mL
Cc1cccc(C2SCC(=O)N2C(=O)NCCCN2c3ccccc3Sc3ccccc32)c1	inhibition	-	H37Rv	-	-	agar	25 µg/mL	28%
O=C(CN1CCN(c2cc3c(cc2F)c(=O)c(C(=O)O)cn3C2CC2)CC1)c1cccs1	MIC	-	H37Rv	-	-	-	-	1.56 µg/mL
CC(C)C1=CC2=CC(=O)[C@H]3C(C)(C)CCC[C@]3(C)C2=C(O)C1=O	MIC	-	H37Rv	-	VERO	BACTEC	-	12.5 µg/mL
COc1cccc(NC(=O)C2=C(C)NC(C)=C(C(=O)Nc3cccc(OC)c3)C2c2ccccc2S)c1	MIC	-	H37Rv	-	-	-	-	>12.5 µg/mL
CN[C@@H]1[C@H](O[C@H]2[C@H](O[C@H]3[C@H](O)[C@@H](O)[C@H](N=C(N)N)[C@@H](O)[C@@H]3N=C(N)N)O[C@@H](C)[C@]2(O)C=O)O[C@@H](CO)[C@H](O)[C@H]1O	MIC	-	Praha 1	-	-	-	-	13.7 µM
Nc1nc(N)c2cc(CNc3ccc(Cl)c(C(=O)NC(CC(=O)O)C(=O)O)c3)cnc2n1.O	MIC bound	-	H37Rv	-	-	BACTEC	-	>12.5 µg/mL
Cn1c(NNc2nc(NCc3ccccc3)nc(NCc3ccccc3)n2)nc(-c2ccc(Cl)cc2)c(C#N)c1=O	MIC	-	H37Rv	-	-	-	-	>12.5 µg/mL
CO[C@H]1/C=C/O[C@@]2(C)Oc3c(C)c(O)c4c(O)c(c(/C=N/Nc5ccc([N+](=O)[O-])cc5[N+](=O)[O-])c(O)c4c3C2=O)NC(=O)/C(C)=C\C=C\[C@H](C)[C@H](O)[C@@H](C)[C@@H](O)[C@@H](C)[C@H](OC(C)=O)[C@@H]1C	MIC bound	-	H37Rv	-	-	BACTEC	-	≤12.5 µg/mL
Cn1c(NNc2nc(Nc3ccc(Cl)cc3Cl)nc(Nc3ccc(Cl)cc3Cl)n2)nc(-c2ccccc2)c(C#N)c1=O	EC50	-	H37Rv	-	-	-	-	>12.5 µg/mL
CC(=O)NC[C@H]1CN(c2ccc(N3CCN(c4ccc([N+](=O)[O-])s4)CC3)c(F)c2)C(=O)O1	MIC	-	50	-	-	-	-	2 µg/mL
CN1CCN(c2cc3c(cc2F)C(=O)c2nc4ccccc4c(=O)n2-3)CC1	MIC	-	MDR 10038	-	-	-	-	10 µg/mL
O=C(NCCCN1c2ccccc2Sc2ccccc21)N1C(=O)/C(=C\c2ccccc2[N+](=O)[O-])SC1c1ccccc1[N+](=O)[O-]	inhibition	-	H37Rv	-	-	agar	25 µg/mL	28%
Cn1c(NNc2nc(Nc3ccccn3)nc(Nc3ccccn3)n2)nc(-c2ccc(Cl)cc2)c(C#N)c1=O	inhibition	-	H37Rv	-	-	-	12.5 µg/mL	0%
COc1cc(OC)cc(C2SCC(=O)N2c2nncs2)c1	inhibition	-	H37Rv	-	-	BACTEC	12.5 µg/mL	15%
O=C(O)c1cn(C2CC2)c2cc(N3CCN(C/C(=N/O)c4cccs4)CC3)c(F)cc2c1=O	inhibition	-	H37Rv	-	-	-	6.25 µg/mL	37%
Clc1ccc2c(N3CCOCC3)cc(N3CCOCC3)nc2n1	inhibition	-	H37Rv	-	-	BACTEC	6.25 µg/mL	1%
NC(=O)c1ccc[n+]([O-])c1	MIC	-	H37Rv	-	-	BACTEC	-	≥12.5 µg/mL
COc1cccc2c(=O)n3c(nc12)C(=O)c1cc(F)ccc1-3	MIC	-	H37Rv	-	-	-	-	<0.3 µg/mL
CC(c1nnc(SCCOc2ccc(F)cc2)n1Cc1ccc(F)cc1)N(C)C(=O)c1ccccc1C(F)(F)F	MIC	-	H37Rv (ATCC 27294)	14 d	-	broth dilution	-	>64 µg/mL
Cc1cccc(/C=N/C(=O)NCCCN2c3ccccc3Sc3ccccc32)c1	inhibition	-	H37Rv	-	-	agar	50 µg/mL	35%
CC1(C)Cc2c(oc3ncnc(N)c23)CS1	MIC bound	-	H37Rv	-	-	BACTEC	-	>12.5 µg/mL
COC(=O)C1=C(C)N(c2ccc(Cl)cc2)C(C)=C(C(=O)OC)C1c1cccc([N+](=O)[O-])c1	MIC	-	H37Rv	-	-	-	-	>6.25 µg/mL
CC(C)N=c1cc2n(-c3ccc(Cl)cc3)c3ccccc3nc-2cc1Nc1ccc(Cl)cc1	MIC	-	MDR10	-	-	broth dilution / resazurin	-	0.25 µg/mL
Cc1ccc(Cn2nnc(-c3cc([N+](=O)[O-])cc([N+](=O)[O-])c3)n2)cc1	MIC	-	My 331/88	7 d	-	-	-	0.125 µM
CCNc1nc(NCC)nc(NNc2nc(-c3ccc(Cl)cc3)c(C#N)c(=O)n2C)n1	inhibition	-	H37Rv	-	-	-	12.5 µg/mL	69%
CCCCCC/C=C/CCCCCCCCCC1=CC(=O)C=C(OC)C1=O	MIC	-	H37Rv	-	-	BACTEC	-	128 µg/mL
Cn1ccc(-c2noc(C3=CC4(CCN(CC5CCCO5)CC4)c4ccccc43)n2)n1	MIC	-	H37Rv	-	-	resazurin	-	>100 µM
Cc1cn([C@H]2CC[C@@H](CO)C2)c(=O)[nH]c1=O	MIC bound	-	H37Rv	-	-	BACTEC	-	>12.5 µg/mL
c1cc2c(N3CCCCC3)cc(N3CCOCC3)nc2nc1N1CCOCC1	inhibition	-	H37Rv	-	-	BACTEC	6.25 µg/mL	11%
Cn1c(NNc2nc(NCc3ccco3)nc(NCc3ccco3)n2)nc(-c2ccccc2)c(C#N)c1=O	EC50	-	H37Rv	-	-	-	-	>12.5 µg/mL
CC1=C(C(=O)Nc2cc(C)ccc2C)C(c2cccc(Cl)c2)C(C(=O)Nc2cc(C)ccc2C)=C(C)N1	MIC	-	H37Rv	-	-	-	-	>6.25 µg/mL
Cc1ccc2c(Cl)c(Cc3ccccc3)c(Cl)nc2n1	inhibition	-	H37Rv	-	-	BACTEC	6.25 µg/mL	55%
CC(C)N=c1cc2n(-c3ccc(Cl)cc3)c3ccccc3nc-2cc1Nc1ccc(Cl)cc1	MIC	-	9449/2007	-	-	-	-	0.13 µM
C1=C(c2nc(-c3cccnc3)no2)c2ccccc2C12CCN(CC1CCCO1)CC2	MIC	Ofloxacin-resistant	12119	-	-	resazurin	-	3.12 µM
CCCCCCCCS(=O)(=O)CC(N)=O	MIC	-	7D5245	-	-	-	-	≤6.25 µg/mL
CC(=O)Nc1ccc(Nc2cc(S(=O)(=O)O)c(N)c3c2C(=O)c2ccccc2C3=O)cc1	MIC bound	-	H37Rv	-	-	BACTEC	-	>12.5 µg/mL
Cn1c(NNc2nc(NCc3ccco3)nc(NCc3ccco3)n2)nc(-c2ccc(Cl)cc2)c(C#N)c1=O	EC50	-	H37Rv	-	-	-	-	>12.5 µg/mL
COc1cc2c(cc1OC)C1CC3(CC4c5cc(OC)c(OC)cc5CCN4CC3CO)C(CO)CN1CC2	MIC bound	-	H37Rv	-	-	BACTEC	-	>12.5 µg/mL
COC(=O)C1=C(C)N(c2cccc(C)c2)C(C)=C(C(=O)OC)C1c1ccc(Cl)cc1	MIC	-	H37Rv	-	-	-	-	>6.25 µg/mL

Again, the opening 5 rows:

smiles	endpoint	changes	strain	conditions	cells	read by	tested at	result
CCn1cc(C(=O)O)c(=O)c2cc(F)c(N3CCN(CC(=O)c4cccs4)CC3)cc21	MIC	-	H37Rv	-	-	-	-	>6.25 µg/mL
COc1ccc(-c2ccc(OCC(=O)OC(C)(C)C)cc2CN2CCN(c3cccc(C)n3)CC2)cc1	MIC	-	H37Rv (ATCC 27294)	-	-	broth dilution	-	16 µg/mL
CC12CCC(O)CC1CCC1C2CCC2(C)C(c3ccc(=O)oc3)CC3OC312	MIC	-	H37Rv	-	-	BACTEC	-	≥12.8 µg/mL
Cn1c(NNc2nc(Nc3cccc(Cl)c3)nc(Nc3cccc(Cl)c3)n2)nc(-c2ccc(Cl)cc2)c(C#N)c1=O	MIC	-	H37Rv	-	-	-	-	>12.5 µg/mL
Cc1ccc2c(Cl)c(Cc3ccccc3)c(N3CCOCC3)nc2n1	inhibition	-	H37Rv	-	-	BACTEC	6.25 µg/mL	20%